A mixed list of measured activities; the numbers were collected in NIAID ChemDB.

Common to all: growth or infection tests; agent: Mycobacterium tuberculosis

Percent inhibition refers to the dose given; in toxicity tests it is the harm to the cells. ECn is the concentration giving n% inhibition of infection, replication or growth. MIC bound: limit read from a one-dose screen. Blank or dashed fields: not listed here. Lines come from different laboratories, so protocols vary.

SMILES,strain or isolate,tested at,endpoint,read by,cell line,setting,value
O=C(CSc1nnc(-c2ccccn2)s1)N/N=c1/scc(-c2cccc(Cl)c2)n1-c1ccccc1,H37Rv,-,MIC,-,-,-,>80 µg/mL
N[C@@H](CS(=O)(=O)O)C(=O)O,H37Rv,-,MIC,-,-,-,>100 µg/mL
Nc1ccc(C(=O)N/N=C/c2ccc(F)cc2)cc1,H37Rv,12.5 µg/mL,inhibition,-,-,-,11%
O=C(CSc1nnc(-c2ccccn2)s1)N/N=c1/scc(-c2ccccc2)n1-c1ccc(Cl)cc1,Clinical isolate 180,-,MIC,-,-,-,40 µg/mL
Cn1c(-c2ccc(Br)cc2)cs/c1=N\N=C1/C(=O)Nc2ccccc21.O,H37Rv,-,EC50,-,-,-,>12 µg/mL
COc1ccc2cc([N+](=O)[O-])c3ccc(=O)oc3c2c1,H37RvIr,-,MIC,resazurin,-,-,50 µg/mL
CCOCCSc1nc(N)c2c3c(sc2n1)CC(C(C)(C)C)CC3,H37Rv,-,MIC,MTT / visual reading,-,-,>100 µg/mL
COc1ccc2c(N/N=C/c3c(OC)ccc4ccccc34)ccnc2c1,H37Rv,-,MIC,-,VERO,-,6.25 µg/mL
O=C(O)c1cccs1,H37Rv,-,MIC,-,-,-,100 µg/mL
O=C(CSc1nnc(-c2ccccn2)s1)N/N=c1/scc(-c2ccc([N+](=O)[O-])cc2)n1-c1ccccc1,Clinical isolate 190,-,MIC,-,-,-,40 µg/mL
CN(C)c1ccc(/C=N/NC(=O)c2ccc(N)cc2)cc1,H37Rv,-,MIC,-,-,-,>12.5 µg/mL
CCCCOc1ccc2nccc(NN)c2c1,H37Rv,-,EC90,-,-,inside macrophages,>1 µg/mL
CCOC(=O)c1ccccc1N=Nc1ccc(O)c(C(=O)O)c1,H37Rv,-,MIC,-,-,-,>100 µg/mL
CC1COc2c(N3CCN(C)CC3)c(F)cc3c(=O)c(C(=O)O)cn1c23,T10904,-,MIC,-,-,-,1 µg/mL
CS(=O)(=O)Nc1cccc2c(O)c(Cl)cc(Cl)c12,H37Rv,-,MIC,-,-,-,50 µg/mL
CCCNC(=O)CS(=O)(=O)c1ccc(N)cc1,H37Rv,12.5 µg/mL,inhibition,BACTEC,-,-,5%
NC[C@H]1O[C@H](O[C@H]2[C@H](O)[C@@H](O[C@H]3O[C@H](CO)[C@@H](O)[C@H](N)[C@H]3O)[C@H](N)C[C@@H]2N)[C@H](O)[C@@H](O)[C@@H]1O,H37RV (DL8280-R),-,MIC,-,-,-,25 µg/mL
c1cc[c]([Sn]([c]2ccccc2)([c]2ccccc2)[c]2ccccc2)cc1,H37Rv,-,MIC,-,-,-,>100 µg/mL
O=C(CSc1nnc(-c2ccccn2)s1)N/N=c1/scc(-c2ccccc2)n1-c1ccc(Br)cc1,Clinical isolate 180,-,MIC,-,-,-,40 µg/mL
COc1ccccc1-c1cn(O)c2nc(=N)nc(N)c-2n1,H37Rv,-,MIC bound,BACTEC,-,-,>12.5 µg/mL
OC(c1ccccc1)c1cccnc1,H37Rv,-,MIC,-,-,-,>100 µg/mL
Cc1[nH]nc(-c2cccnc2)c1N=NN(C)C,H37Rv,-,MIC bound,resazurin,-,-,<6.25 µg/mL
NNC(=O)c1ccncc1,CSU25,-,MIC,-,-,-,≤0.125 µg/mL
COC(=O)c1cc(NS(=O)(=O)N(C)C)cc(C(=O)OC)c1,H37Rv,-,MIC bound,BACTEC,-,-,>12.5 µg/mL
O=C1c2cc(Cl)ccc2OP(=O)(c2ccccc2)N1c1ccc(C(F)(F)F)cc1,7357/1998,-,MIC,-,-,21 d,1 µM
CC1CN(c2c(F)cc3c(=O)c(C(=O)O)cn(C4CC4)c3c2F)CCN1,CSU22,-,MIC,-,-,-,0.5 µg/mL
CCOC(N)=O.Cc1cc(NS(=O)(=O)c2ccc(N=Nc3cc(N=Nc4ccc(S(=O)(=O)Nc5cc(C)nc(C)n5)cc4)c4c(NC(=O)C(Cl)Cl)cccc4c3OC(=O)C(Cl)Cl)cc2)nc(C)n1,H37Rv,12.5 µg/mL,inhibition,BACTEC,-,-,-2%
COc1cccc2c1cc1c3c(cc4c(c32)OCO4)C(=O)N1,H37Rv,-,MIC,resazurin,-,-,12.5 µg/mL
O=C(Nc1ccc(Br)cc1)c1cc(Cl)ccc1OP(=O)(Oc1ccccc1)c1ccccc1,My 331/88,-,MIC,-,-,14 d,4 µM
C=CCN=C(N=Nc1c(O)[nH]c2ccccc12)SCC(=O)c1ccc(Br)cc1,H37Rv,12 µg/mL,inhibition,-,-,-,87%
CCCCCCOC(=O)c1[nH]c(=O)n(CCCCCC)c(=O)c1N,H37Rv,6.25 µg/mL,inhibition,resazurin,-,-,36%
CCc1cc(C(N)=S)ccn1,H37RV (DL8280-R),-,MIC,-,-,-,20 µg/mL
COc1cc(N=C(N)N=C(N)N)c2ncccc2c1,-,-,MIC bound,resazurin,-,-,>6.25 µg/mL
CC(C)(C)C1CCc2c(sc3nc(SCc4cccnc4)nc(N)c23)C1,H37Rv,-,MIC,MTT / visual reading,-,-,>200 µg/mL
O=C(CSc1nnc(-c2ccccn2)s1)N/N=c1/scc(-c2ccccc2)n1-c1ccccc1,Clinical isolate 180,-,MIC,-,-,-,>80 µg/mL
COc1c(C(C)=O)cc([N+](=O)[O-])c2nc(C(C)C)ccc12,H37Rv,6.25 µg/mL,inhibition,-,-,-,0%
O=C(O)c1cn(C2CC2)c2c(F)c(N3CCSCC3)c(F)cc2c1=O,CSU22,-,MIC,-,-,-,1 µg/mL
O=C(NC12CC3CC(CC(C3)C1)C2)C(=O)c1c[nH]c2ccc([N+](=O)[O-])cc12,H37Rv,-,MIC bound,resazurin,-,-,>6.25 µg/mL
O=C(CSc1nnc(-c2ccccn2)s1)N/N=c1/scc(-c2ccc(Cl)cc2)n1-c1ccccc1,Clinical isolate 331,-,MIC,-,-,-,80 µg/mL
O=[As](O)(O)c1ccc(O)c(O)c1,H37Rv,-,MIC,-,-,-,>100 µg/mL
O=C1c2cc(Br)ccc2OP(=O)(c2ccccc2)N1c1ccc(C(F)(F)F)cc1,9449/2007,-,MIC,-,-,21 d,1 µM
Cc1cc(S(N)(=O)=O)ccc1Cl,H37Rv,-,MIC,-,-,-,>100 µg/mL
O=C(Nc1ccc(Br)cc1)c1cc(Cl)ccc1OP(=O)(c1ccccc1)c1ccccc1,My 331/88,-,MIC,-,-,14 d,4 µM
CC1CN(c2c(F)cc3c(=O)c(C(=O)O)cn(C4CC4)c3c2F)CC(C)N1,CSU26,-,MIC,-,-,-,0.25 µg/mL
CO[C@H]1/C=C/O[C@@]2(C)Oc3c(C)c(O)c4c(O)c(c(/C=N/N5CCN(C6CCCC6)CC5)c(O)c4c3C2=O)NC(=O)/C(C)=C\C=C\[C@H](C)[C@H](O)[C@@H](C)[C@@H](O)[C@@H](C)[C@H](OC(C)=O)[C@@H]1C,1034,-,MIC,-,-,-,0.16 µg/mL
CCOC(=O)C(CC)Sc1nc(N)c2c3c(sc2n1)CC(C(C)(C)C)CC3,H37Rv,-,MIC,MTT / visual reading,-,-,>200 µg/mL
CCC(C)(C)c1ccc(Oc2cccc(C(=O)Nc3ccc(C(=O)Nc4cc(O)n(-c5ccc(Oc6ccc(C(C)(C)C)cc6)cc5)n4)cc3)c2)c(S(=O)(=O)Cl)c1,H37Rv,-,MIC,-,-,-,>100 µg/mL
O=C1c2[nH]c3ccccc3c2CN1CCc1ccccc1,H37Rv,12.8 µg/mL,inhibition,BACTEC,-,-,6%
COc1ccc2c(NN)ccnc2c1,H37Rv,12.5 µg/mL,inhibition,-,VERO,-,97%
O=C(CSc1nnc(-c2ccccn2)s1)N/N=c1/scc(-c2ccccc2)n1-c1cccc([N+](=O)[O-])c1,Clinical isolate 180,-,MIC,-,-,-,80 µg/mL
CC(C)c1ccc2cccc([N+](=O)[O-])c2n1,H37Rv,6.25 µg/mL,inhibition,-,-,-,3%
O=C(Nc1ccccc1)c1ccccc1OP(=O)(Oc1ccccc1)Oc1ccccc1,My 331/88,-,MIC,-,-,7 d,125 µM
CC1COc2c(N3CCN(C)CC3)c(F)cc3c(=O)c(C(=O)O)cn1c23,H37RV (KAN-R),-,MIC,-,-,-,1.25 µg/mL
COc1cc(NCCOCCO)c2ncccc2c1.Cl,H37Rv,-,MIC,-,-,-,>100 µg/mL
COc1cc2oc(=O)ccc2cc1CC=C(C)C,H37Rv,-,MIC bound,BACTEC,-,-,≤128 µg/mL
CC1COc2c(N3CCN(C)CC3)c(F)cc3c(=O)c(C(=O)O)cn1c23,SMI 1,-,MIC,agar,-,-,0.5 µg/mL
Cn1c(=O)c2nc(-c3cccnc3)cnc2n(C)c1=O,H37Rv,12.5 µg/mL,inhibition,BACTEC,-,-,0%
CCN1C(=O)CCC1=O,H37Rv,-,MIC,-,-,-,>100 µg/mL
O=C(CSc1nnc(-c2ccccn2)s1)N/N=c1/scc(-c2cccc(Br)c2)n1-c1ccccc1,Clinical isolate 180,-,MIC,-,-,-,40 µg/mL
O=C(CSc1nc(-c2ccccc2)c(-c2ccccc2)[nH]1)N=Nc1c(O)[nH]c2ccccc12,H37Rv,-,MIC,-,-,-,>12.5 µg/mL
Cc1cc(O)c2c3c(c(=O)oc2c1)CCC(C)C3,H37Rv,-,MIC,-,-,-,100 µg/mL
O=C(Nc1ccc(C(F)(F)F)cc1)c1cc(Cl)ccc1OP(=O)(c1ccccc1)c1ccccc1,9449/2007,-,MIC,-,-,14 d,1 µM
Cl.Nc1ccc(NCCCCCCN2CCOCC2)nc1,H37Rv,-,MIC,-,-,-,>100 µg/mL
S=C(S)NN1CCCC1,RMP-R,-,MIC,-,-,-,0.8 µg/mL
CN(C)c1ccc(/C=C/C/C=N/NC(=O)c2ccc(N)cc2)cc1,H37Rv,-,MIC,-,-,-,>12.5 µg/mL
CCCCCOc1c(C(C)=O)cc(N)c2nccc(CC)c12,H37Rv,6.25 µg/mL,inhibition,-,-,-,99%
CC(C)(C)O/N=C/c1cc(NC(=S)c2ccsc2)ccc1Cl,H37Rv,-,MIC,-,VERO,-,12.5 µg/mL
Br.O=C(Cc1ccccc1)N1CCCCC1,H37Rv,-,MIC,-,-,-,>100 µg/mL
Nc1ccc(C(=O)N/N=C/c2ccc(O)cc2)cc1,H37Rv,-,EC50,-,-,-,>12.5 µg/mL
CCCCCCCCOc1c(C(C)=O)cc(N)c2nccc(CC)c12,Isoniazid-resistant,-,MIC,-,-,-,6.25 µg/mL
Cc1cc(C)c([N+](=O)[O-])cc1N(C)C(=O)CCC(=O)O,H37Rv,-,MIC,-,-,-,>100 µg/mL
O=[N+]([O-])c1cccc2ccc(C3CCCC3)nc12,H37Rv,-,MIC,-,-,-,>6.25 µg/mL
CC(=O)NOC[C@H]1NC(=O)[C@@H](CONC(C)=O)NC1=O,H37Rv,-,MIC bound,BACTEC,-,-,>12.5 µg/mL
O=C(Nc1ccc(Cl)cc1)c1cc(Cl)ccc1OP(=O)(c1ccccc1)c1ccccc1,My 331/88,-,MIC,-,-,7 d,4 µM
Cn1c2nc(=O)n(-c3ccccc3)c(=O)c-2nc2ccccc21,H37Rv,12.5 µg/mL,inhibition,BACTEC,-,-,0%
CCCCc1ccc2nc(C)cc(N/N=C/c3ccc(OC)c4ccccc34)c2c1,H37Rv,12.5 µg/mL,inhibition,-,VERO,-,100%
O=C1C=C(Nc2ccccc2C(=O)CC(=O)C(=O)Nc2ccc(Cl)c(Cl)c2)c2ccccc2C1=O,H37Rv,-,MIC,resazurin,VERO,-,0.78 µg/mL
Cn1ccnc1CSc1nc(N)c2c3c(sc2n1)CC(C(C)(C)C)CC3,H37Rv,-,MIC,MTT / visual reading,-,-,25 µg/mL
O=Nc1c(-c2cccc([N+](=O)[O-])c2)nc2ncccn12,H37Rv,6.25 µg/mL,inhibition,resazurin,-,-,99%
Nc1cc(Nc2ccccc2C(=O)[O-])ccn1.[Na+],H37Rv,-,MIC,-,-,-,>100 µg/mL
NNC(=O)CC1=NNC(=O)C1,H37Rv,12.5 µg/mL,inhibition,BACTEC,-,-,19%
CCC(=O)OC(CC)C(CC(C)N(C)C)(c1ccccc1)c1ccccc1.Cl,H37Rv,-,MIC,-,-,-,100 µg/mL
CCCCNC(=S)S,CS-R,-,MIC,-,-,-,>12.5 µg/mL
CCCCn1c(-c2ccc(OC)cc2)cs/c1=N\N=C1/C(=O)Nc2ccccc21,H37Rv,-,MIC,-,-,-,>12.5 µg/mL
Oc1ccccc1C=Nc1ccc(-c2ccc3ccccc3n2)cc1,H37Rv,-,MIC,-,-,-,>100 µg/mL
COc1ccc(/C=N/Nc2cc(C)nc3cc(Cl)ccc23)c2ccccc12,H37Rv,12.5 µg/mL,inhibition,-,VERO,-,100%
NNC(=O)c1ccncc1,Erdman,-,MIC,BACTEC,-,-,0.023 µg/mL
Oc1ccc2cn[nH]c2c1,H37Rv,-,MIC,-,-,-,>100 µg/mL
CCOC(=O)[C@@H](C)Sc1nc(N)c2c3c(sc2n1)CC(C(C)(C)C)CC3,H37Rv,-,MIC,MTT / visual reading,-,-,12.5 µg/mL
Cc1cc(=O)[nH]c(/N=C(\N)Nc2ccc(Cl)c(C(F)(F)F)c2)n1,H37Rv,12.5 µg/mL,inhibition,BACTEC,-,-,53%
CCOC(=O)c1c[nH]c2cc(Cl)ccc2c1=O,H37Rv,-,MIC,-,-,-,>100 µg/mL